Earlier results, collected in patent US20060240077A1, “Methodologies for improving the quality of meat, health status of animals and impact on environment” (priority 2003, published 2006).

Settings: for Odour threshold air, High: highest literature value; for Odour threshold air, Low: lowest literature value

| Compound | Odour threshold air, High | Odour threshold air, Low |
| --- | --- | --- |
| CC(C)C(=O)O [2-Methylpropanoic acid] | 0.0072 (3) mg/m3 | 0.00072 (3) mg/m3 |
| CC(C)CC(=O)O [3-Methylbutanoic acid] | 3 mg/m3 | 0.005 mg/m3 |
| Cc1c[nH]c2ccccc12 [3-Methylindole] | 0.1 mg/m3 | 0.00035 mg/m3 |
| CC(=O)O [Acetic acid] | 76 mg/m3 | 0.025 mg/m3 |
| CCCC(=O)O [Butyric acid] | 9 mg/m3 | 0.0004 mg/m3 |
| CSC [Dimethylsulfide] | 0.65 mg/m3 | 0.002 mg/m3 |
| CCCC(=O)OCC [Ethylbutyrate] | 0.28 mg/m3 | 0.13 mg/m3 |
| CCCCCO [Treatment 1-Pentanol, 1-Pentanol] | 1100 mg/m3 | 0.1 mg/m3 |
